Measured values from several laboratories, pooled; numbers as filed in NIAID ChemDB.

Common to all: tests on isolated targets; species: HIV-1; protein: Reverse transcriptase; read by: RT activity; endpoint: inhibition

Conditions beyond the fields shown may differ between rows. Blank or dashed fields: not listed here. Percent inhibition refers to the dose given; in toxicity tests it is the harm to the cells.

structure | strain or isolate | dose | mutations | value
CC(C)Nc1cccnc1N1CCN(C(=O)c2cc3cc4c(cc3[nH]2)OCO4)CC1 | IIIB | 50 µM | - | 99.9%
CO[C@H]1/C=C/O[C@@]2(C)Oc3c(C)c(O)c4c(c3C2=O)C(=O)C(SCCCCCCCOC(=O)CCCC(=O)OC[C@H]2O[C@@H](n3cc(C)c(=O)[nH]c3=O)C[C@@H]2N=[N+]=[N-])=C(NC(=O)/C(C)=C\C=C\[C@H](C)[C@H](O)[C@@H](C)[C@@H](O)[C@@H](C)[C@H](OC(C)=O)[C@@H]1C)C4=O | IIIB | 300 µM | - | 33%
COc1ccccc1N1CCN(C(=O)c2cc3cc4c(cc3[nH]2)OCO4)CC1 | IIIB | 50 µM | - | 96.9%
CCN1c2ncc(COc3cccc(C(=O)OC)c3)cc2C(=O)N(C)c2ccc(Cl)nc21 | - | 1 µM | RT-Y188L | 0%
COc1ccc(-c2oc3cc(O)cc(O)c3c(=O)c2OC)cc1 | - | 200 µg/mL | - | 46.8%
CCN1c2ncc(COc3ccc(O)cc3)cc2C(=O)N(C)c2ccc(Cl)nc21 | - | 1 µM | RT-Y188L | 13%
Cc1cc(O)c2c(c1F)C(=O)C=CC2=O | - | 12.5 µg/mL | - | 49%
CCNc1cccnc1N1CCN(C(=O)c2cc3cc4c(cc3[nH]2)OCO4)CC1 | IIIB | 50 µM | - | 99.4%
C=C1CC23CCC4[C@@](C)(CCC[C@@]4(C)C(=O)O)C2CC[C@H]1C3 | - | 200 µg/mL | - | 97.9%
CO[C@H]1/C=C/O[C@@]2(C)Oc3c(C)c(O)c4c(c3C2=O)C(=O)C(SCCOC(=O)CCCC(=O)OC[C@@H]2O[C@H](n3cc(C)c(=O)[nH]c3=O)C[C@H]2N=[N+]=[N-])=C(NC(=O)/C(C)=C\C=C\[C@H](C)[C@@H]2OC(C)(C)O[C@@H]([C@@H](C)[C@H](OC(C)=O)[C@@H]1C)[C@@H]2C)C4=O | IIIB | 300 µM | - | 45%
CCOc1ccccc1N1CCN(C(=O)c2cc3ccccc3[nH]2)CC1 | IIIB | 50 µM | - | 89.6%
C=C1[C@H]2CCC3C(CCC4[C@@]3(C)CCC[C@@]4(C)C(=O)O)(C2)[C@@H]1O | - | 200 µg/mL | - | 20.5%
CCOc1cc(C)c(Cl)c2c1C(=O)C=CC2=O | - | 25 µg/mL | - | 55%
C[C@@H]1[C@H](O)[C@@H](C)/C=C/C=C/C=C/C=C/C=C/C=C/C=C/[C@H](O[C@@H]2O[C@H](C)[C@@H](O)[C@H](N)[C@@H]2O)CC2O[C@](O)(CC(O)C(O)CCC(O)CC(O)CC(O)CC(=O)O[C@H]1C)CC(O)C2C(=O)O.O=S(=O)(O)O | - | 40 µg/mL | - | 30%
COc1cc(C)c(Cl)c2c1C(=O)C=CC2=O | - | 100 µg/mL | - | 94%
O=c1c(-c2ccccc2)coc2ccccc12 | LAV | 500 µg/mL | - | 40.21%
CCOc1ccccc1N1CCN(C(=O)c2cc3cc4c(cc3[nH]2)OCO4)CC1 | IIIB | 50 µM | - | 98.5%
CO[C@H]1/C=C/O[C@@]2(C)Oc3c(C)c(O)c4c(c3C2=O)C(=O)C(SCCOC(=O)CCC(=O)OC[C@H]2O[C@@H](n3cc(C)c(=O)[nH]c3=O)CC2O)=C(NC(=O)/C(C)=C\C=C\[C@H](C)[C@H](O)[C@@H](C)[C@@H](O)[C@@H](C)[C@H](OC(C)=O)[C@@H]1C)C4=O | IIIB | 300 µM | - | 38%
C[C@@]12CCC[C@@](C)(C(=O)O)C1CC[C@@]13C[C@H](CCC12)[C@@](O)(CO)C3 | - | 200 µg/mL | - | 25.2%
CCN1c2ncc(COc3ccc(C(=O)OC)cc3)cc2C(=O)N(C)c2ccc(Cl)nc21 | - | 1 µM | RT-Y188L | 20%
Cc1cc(O)c2c(c1Cl)C(=O)C=CC2=O | - | 100 µg/mL | - | 95%
C=C1C(=O)[C@@]23CCC4[C@@](C)(CCC[C@@]4(C)C(=O)O)C2CC[C@H]1C3 | - | 200 µg/mL | - | 66.1%

A second listing of 2 rows from above:

structure | strain or isolate | dose | mutations | value
COc1ccccc1N1CCN(C(=O)c2cc3cc4c(cc3[nH]2)OCO4)CC1 | IIIB | 50 µM | - | 96.9%
C[C@@H]1[C@H](O)[C@@H](C)/C=C/C=C/C=C/C=C/C=C/C=C/C=C/[C@H](O[C@@H]2O[C@H](C)[C@@H](O)[C@H](N)[C@@H]2O)CC2O[C@](O)(CC(O)C(O)CCC(O)CC(O)CC(O)CC(=O)O[C@H]1C)CC(O)C2C(=O)O.O=S(=O)(O)O | - | 40 µg/mL | - | 30%